This is an account of results in patent US20110081315A1, “NOVEL MACROCYCLIC INHIBITORS OF HEPATITIS C VIRUS REPLICATION” (INTERMUNE, INC., priority 2009, published 2011).

Protein sequences, listed by entry. Tags and fused reporters are not part of them. Residues count along the entry.
UniProt P27958, 1027-1657 limits assumed: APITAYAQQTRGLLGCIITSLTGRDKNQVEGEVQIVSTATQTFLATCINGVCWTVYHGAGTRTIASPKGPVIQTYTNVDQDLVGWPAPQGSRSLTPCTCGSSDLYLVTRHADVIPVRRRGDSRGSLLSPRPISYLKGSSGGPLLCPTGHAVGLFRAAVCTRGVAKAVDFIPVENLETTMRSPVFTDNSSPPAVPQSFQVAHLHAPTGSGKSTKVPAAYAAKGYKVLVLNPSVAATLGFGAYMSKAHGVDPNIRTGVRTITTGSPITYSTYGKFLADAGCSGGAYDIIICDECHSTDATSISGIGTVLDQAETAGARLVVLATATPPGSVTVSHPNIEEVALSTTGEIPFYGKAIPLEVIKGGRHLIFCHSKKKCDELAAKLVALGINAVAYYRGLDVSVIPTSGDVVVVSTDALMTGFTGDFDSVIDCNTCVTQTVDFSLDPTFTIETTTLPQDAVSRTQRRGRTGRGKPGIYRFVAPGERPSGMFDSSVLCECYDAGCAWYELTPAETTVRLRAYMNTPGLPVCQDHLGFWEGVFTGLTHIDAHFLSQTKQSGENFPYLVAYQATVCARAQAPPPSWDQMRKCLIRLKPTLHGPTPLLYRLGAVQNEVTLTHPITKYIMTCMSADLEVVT

One experiment has as its system hepatitis C replicon. Nature of the experiment: hepatitis C replicon EC50 assay. The class given is cell-based, Hepatitis C virus. From the text: (§1) NS3-NS4 inhibition activity can be determined using known assay methods. For example, NS3/NS4 complexes may be formed and inhibitory concentrations of test compounds determined as described in U.S. Patent Application Publication Number 2007/0054842 paragraph numbers 1497-1509, which is incorporated herein by reference in its entirety. Similarly, hepatitis C replicon EC50 may be determined using known assay methods such as described in U.S. Patent Application Publication Number 2007/0054842 paragraph numbers 1510-1515, which is incorporated herein by reference in its entirety. Assays may be conducted at ambient temperature (23° C.) in assay buffer containing 50 mM Tris-HCl, pH 7.5, 15% glycerol, 0.6 mM Lauryldimethylamine Oxide (LDAO), 25 μM NS4A peptide, and 10 mM Dithiothreitol (DTT).
A general note: A replicon is a self-replicating genome or part of one, used to study replication in cells.

Another experiment has as its target NS3/NS4 complexes (Hepatitis C virus genotype 1a, UniProt P27958). Nature of the experiment: NS3/NS4 inhibition assay (IC50). The class given is biochemical. The note with it: NS3/NS4 activity; 23° C., 25 μM NS4A peptide.
Description: as §1

Each structure is given as a SMILES string.

The term EC50 denotes the concentration at which the effect is half-maximal. A lower EC50 goes with greater potency. Broadly, the IC50 is the point on the concentration scale where inhibition reaches its midpoint. The low end stands for inhibition by little substance, the high end for a need for much substance. In the experiment with hepatitis C replicon, `CCOc1csc(-c2cccc3c2nc(O[C@@H]2C[C@H]4C(=O)N[C@]5(C(=O)NS(=O)(=O)N(C)C)C[C@H]5/C=C\CCCCC[C@H](NC(=O)OC(C)(C)C)C(=O)N4C2)n3C(C)C)n1` came in with an EC50 of less than 10 nM. Moreover, the IC50 against NS3/NS4 complexes is less than 10 nM.
For the compound `CC(C)n1c(O[C@@H]2C[C@H]3C(=O)N[C@]4(C(=O)O)C[C@H]4/C=C\CCCCC[C@H](NC(=O)OC(C)(C)C)C(=O)N3C2)nc2c(-c3nc(C4CCCC4)cs3)cccc21`, in the experiment on hepatitis C replicon, the EC50 was greater than 100 nM. This compound also displayed an IC50 against NS3/NS4 complexes of less than 10 nM.
`CC(C)n1c(O[C@@H]2C[C@H]3C(=O)N[C@]4(C(=O)NS(=O)(=O)C5(C)CC5)C[C@H]4/C=C\CCCCC[C@H](NC(=O)OC(C)(C)C)C(=O)N3C2)nc2c(-c3nc4c(s3)CCCC4)cccc21` returned a concentration for a half-maximal effect (EC50) with hepatitis C replicon of less than 10 nM. Also, the IC50 against NS3/NS4 complexes is less than 10 nM.
Compound `CC(C)c1csc(-c2cccc3c2nc(O[C@@H]2C[C@H]4C(=O)N[C@]5(C(=O)NS(=O)(=O)C6(C)CC6)C[C@H]5/C=C\CCCCC[C@H](NC(=O)OC5COC5)C(=O)N4C2)n3C(C)C)n1` showed an EC50 in the experiment with hepatitis C replicon of 10 to 100 nM. The IC50 against NS3/NS4 complexes was less than 10 nM.
For `CCn1c(O[C@@H]2C[C@H]3C(=O)N[C@]4(C(=O)NS(=O)(=O)N(C)C)C[C@H]4/C=C\CCCCC[C@H](NC(=O)OC(C)(C)C)C(=O)N3C2)nc2c(-c3nc(C(C)C)c(C)s3)cccc21` [Compound 1432] the same measures were 10 to 100 nM and less than 10 nM.
In the same order, the values of `CC(C)(C)OC(=O)N[C@H]1CCCCC/C=C\[C@@H]2C[C@@]2(C(=O)NS(=O)(=O)OC2CC2)NC(=O)[C@@H]2C[C@@H](OC(=O)N3Cc4cccc(F)c4C3)CN2C1=O` are 10 to 100 nM and less than 10 nM.
